{
  "source": "paper doi:10.1101/772699",
  "key": {"[1]": {"biological_target": "T1, SAP54 (Aster Yellows-Witches' Broom phytoplasma (AY-WB)) (UniProt Q2NJQ2)", "T1 sequence (looked up, limits assumed)": "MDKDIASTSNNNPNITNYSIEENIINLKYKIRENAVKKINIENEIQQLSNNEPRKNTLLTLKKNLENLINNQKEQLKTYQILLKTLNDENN", "test": "EMSA", "details": "SAP54 without MTF"}, "AP1 + SAP54": {"system": "AP1 + SAP54", "test": "EMSA supershift", "details": "1 ul of 13.3 uM SAP54, results similar to SEP3; protein translated in vitro"}, "SEP3 + SAP54": {"system": "SEP3 + SAP54", "test": "EMSA supershift", "details": "1 ul of 13.3 uM SAP54, supershift; protein translated in vitro"}, "SEP3ΔC + SAP54": {"system": "SEP3ΔC + SAP54", "test": "EMSA supershift", "details": "1 ul of 13.3 uM SAP54, supershift; protein translated in vitro"}},
  "note": "Construct, isoform or probe ends are uncertain for at least one entry. For some of these results: Negatives hold for the conditions tested. For some of these results: Tags and fusion partners may be left off the protein sequences shown. For some of these results: At least one verdict was read from the data and is not stated in words by the source.",
  "data": [
    {"sequence": "TCGAGGTCGGAAATTTAATTATATTCCAAATAAGGAAAGTATGGAACGTTCGACGGTATCGATAAGCTTGATGAAATTTAATTATATTCCAAATAAGGAAAGTATGGAACGTTATCGAATTCCTGCAGCCCGGGGGATCCACTAGTTCTAG (double strand) [two-CArG-box probe]", "values": [
      {"measurement": "binding result", "setting": "[1]", "value": "no binding"},
      {"measurement": "binding result", "setting": "AP1 + SAP54", "value": "binds"},
      {"measurement": "binding result", "setting": "SEP3 + SAP54", "value": "binds"},
      {"measurement": "binding result", "setting": "SEP3ΔC + SAP54", "value": "binds"}
    ]}
  ]
}
